Laboratory results reported in PMC12212376 (Antiviral research, 2025).

Key:
Vero cells = assay: Cell toxicity MTT assay; conditions: cytotoxic dose/antiviral dose (1μM/8 nM)
[1] = Biodistribution and toxicology of nebulized lipopeptide in AGM

CC[C@H](C)[C@H](NC(=O)[C@H](CO)NC(=O)[C@H](CC(=O)O)NC(=O)[C@H](CC(C)C)NC(=O)[C@@H](NC(=O)[C@H](CCCCN)NC(=O)[C@H](CC(N)=O)NC(=O)[C@H](CO)NC(=O)[C@H](CCCNC(=N)N)NC(=O)[C@H](CCCNC(=N)N)NC(=O)[C@@H](NC(=O)[C@H](Cc1c[nH]c2ccccc12)NC(=O)[C@H](CCC(=O)O)NC(=O)[C@H](CCCCN)NC(=O)[C@H](CO)NC(=O)[C@H](CCC(=O)O)NC(=O)[C@H](CCC(=O)O)NC(=O)[C@H](CC(C)C)NC(=O)[C@H](CC(=O)O)NC(=O)[C@H](CO)NC(=O)[C@H](CCCCN)NC(=O)[C@@H](NC(=O)[C@H](CCCCN)NC(=O)[C@H](CC(N)=O)NC(=O)[C@H](CC(C)C)NC(=O)[C@@H](NC(=O)[C@@H](NC(=O)[C@H](CO)NC(=O)[C@@H](NC(=O)[C@H](CC(=O)O)NC(=O)[C@@H](NC(=O)[C@@H]1CCCN1C(=O)[C@H](CC(=O)O)NC(=O)[C@H](CC(C)C)NC(=O)[C@H](C)NC(=O)[C@@H](NC(C)=O)C(C)C)[C@@H](C)CC)[C@@H](C)CC)[C@@H](C)CC)C(C)C)[C@@H](C)CC)[C@@H](C)CC)[C@@H](C)CC)C(=O)NCC(=O)N[C@@H](CO)C(=O)NCC(=O)N[C@@H](CO)C(=O)NCC(=O)NC(CSCC(=O)NCCOCCOCCOCCOCCC(=O)O[C@H]1CC[C@@]2(C)C(=CC[C@H]3[C@@H]4CC[C@H]([C@H](C)CCCC(C)C)[C@@]4(C)CC[C@@H]32)C1)C(N)=O (stereo partly drawn) [VIKI-chol-PEG4]
In vitro Therapeutic Index (Vero cells): over 125 | Blood biochemistry and hematology ([1]; single or triple nebulization, blood at 24, 48, 72h and 24h after last nebulization, n = 3): remained within normal range in all animals | Lipopeptide deposition in lungs (anti-VIKI immunofluorescence) ([1]; three consecutive nebulizations at one-day intervals, 3 mL at 4 mg/ml, lungs taken 24h after last nebulization, n = 3 treated AGMs): Staining was observed in different sections from both lungs of all treated animals
